According to publication PMC9964242 (Vaccines, 2023):

System: influenza A/chicken/Egypt/N12640A/2016 (H5N1)
Experiment: Antiviral crystal violet assay against highly pathogenic avian influenza A/H5N1 (IC50)
Format: cell-based
Conditions: virus H5N1

Row | SMILES | SI (selectivity index = CC50/IC50)
1 | CC[C@H](CC[C@@H](C)[C@H]1CC[C@H]2[C@@H]3CC=C4C[C@@H](O)CC[C@]4(C)[C@H]3CC[C@]12C)C(C)C [β-sitosterol] | 33600
2 | CC[C@H](CC[C@@H](C)[C@H]1CC[C@H]2[C@@H]3CC=C4C[C@@H](O[C@@H]5O[C@H](CO)[C@@H](O)[C@H](O)[C@H]5O)CC[C@]4(C)[C@H]3CC[C@]12C)C(C)C [β-sitosterol-O-glucoside] | 2860
